The text below walks through data of US8329658B2, “Arylalkyl and heteroarylalkyl derivatives of cyclosporine A for the treatment and prevention of viral infection” (Scynexis, Inc., priority 2005, dated 2012).

The data set has as its system HIV-1IIIB. The experiment in a line: HIV MTS cytoprotection assay in CEM-SS cells. It is filed as cell-based, human immunodeficiency virus-1 (HIV). The following applies: selectivity index, cytotoxicity IC50 / HIV EC50, NS is no significant activity. Here is the method: The compounds of the present invention were tested for antiretroviral activity against human immunodeficiency virus-1 (HIV) using infection of the human T-lymphoblastoid cell line, CEM-SS, with the HIV strain HIV-1IIIB (Weislow et al., 1989, J. Natl. Cancer Inst. 81, 577-586). In this MTS cytoprotection assay, each experiment included cell control wells (cells only), virus control wells (cells plus virus), drug toxicity wells (cells plus drug only), drug colorimetric control wells (drug only) as well as experimental wells (drug plus cells plus virus). Compounds were first dissolved in DMSO and tested using six half-log dilutions, starting with a high concentration of either 20 or 2 μM. […] was added to each well in a volume of 50 μL, the amount of virus determined to give approximately 90% cell killing at 6 days post-infection. At assay termination, assay plates were stained with the soluble tetrazolium-based dye MTS (CellTiter 96 Reagent, Promega) to determine cell viability and quantify compound toxicity. MTS is metabolized by the mitochondria enzymes of metabolically active cells to yield a soluble formazan product, providing a quantitative analysis of cell viability and compound cytotoxicity. The assay was validated in parallel experiments using Zidovudine (3′-azido-3′-deoxythymidine or AZT) as a positive control. The assay included determinations of compound EC50 (concentration inhibiting virus replication by 50%), IC50 (concentration resulting in 50% inhibition of cell growth) and a selectivity index (IC50/EC50).
A general note: Formazan colour is commonly taken as a measure of viable cells.
As for 3-benzyloxycyclosporin [Compound B], the “Selectivity IC50/EC50” value is reported as >52.

Take `C/C=C/C[C@@H](C)[C@@H](O)[C@H]1C(=O)N[C@@H](CC)C(=O)N(C)C(OCc2cccs2)C(=O)N(C)[C@@H](CC(C)C)C(=O)N[C@@H](C(C)C)C(=O)N(C)[C@@H](CC(C)C)C(=O)N[C@@H](C)C(=O)N[C@H](C)C(=O)N(C)[C@@H](CC(C)C)C(=O)N(C)[C@@H](CC(C)C)C(=O)N(C)[C@@H](C(C)C)C(=O)N1C` (stereo partly drawn) [C, 3-[(thiophene-2-yl)methoxy]cyclosporin]: the “Selectivity IC50/EC50” value is >22.

`CC=CCC(C)C(O)C1C(=O)NC(CC)C(=O)N(C)C(SCc2ccccc2)C(=O)N(C)C(CC(C)C)C(=O)NC(C(C)C)C(=O)N(C)C(CC(C)C)C(=O)NC(C)C(=O)NC(C)C(=O)N(C)C(CC(C)C)C(=O)N(C)C(CC(C)C)C(=O)N(C)C(C(C)C)C(=O)N1C` (stereo not drawn) [Compound A, 3-benzylthiocyclosporin]: the “Selectivity IC50/EC50” value was >37.

`C/C=C/C[C@@H](C)[C@@H](O)[C@H]1C(=O)N[C@@H](CC)C(=O)N(C)C(OCc2ccoc2)C(=O)N(C)[C@@H](CC(C)C)C(=O)N[C@@H](C(C)C)C(=O)N(C)[C@@H](CC(C)C)C(=O)N[C@@H](C)C(=O)N[C@H](C)C(=O)N(C)[C@@H](CC(C)C)C(=O)N(C)[C@@H](CC(C)C)C(=O)N(C)[C@@H](C(C)C)C(=O)N1C` (stereo partly drawn) [Compound E, 3-[(furan-3-yl)methoxy]cyclosporin]: the “Selectivity IC50/EC50” value is given as >22.

Take `C/C=C/C[C@@H](C)[C@@H](O)[C@H]1C(=O)N[C@@H](CC)C(=O)N(C)C(OCc2ccco2)C(=O)N(C)[C@@H](CC(C)C)C(=O)N[C@@H](C(C)C)C(=O)N(C)[C@@H](CC(C)C)C(=O)N[C@@H](C)C(=O)N[C@H](C)C(=O)N(C)[C@@H](CC(C)C)C(=O)N(C)[C@@H](CC(C)C)C(=O)N(C)[C@@H](C(C)C)C(=O)N1C` (stereo partly drawn) [D, 3-[(furan-2-yl)methoxy]cyclosporin]: the “Selectivity IC50/EC50” value is >34.

For the molecule `C/C=C/C[C@@H](C)[C@@H](O)[C@H]1C(=O)N[C@@H](CC)C(=O)N(C)C(OCc2ccsc2)C(=O)N(C)[C@@H](CC(C)C)C(=O)N[C@@H](C(C)C)C(=O)N(C)[C@@H](CC(C)C)C(=O)N[C@@H](C)C(=O)N[C@H](C)C(=O)N(C)[C@@H](CC(C)C)C(=O)N(C)[C@@H](CC(C)C)C(=O)N(C)[C@@H](C(C)C)C(=O)N1C` (stereo partly drawn) [G, 3-[(thiophene-3-yl)methoxy]cyclosporin], the “Selectivity IC50/EC50” value is reported as >7.
